PubChem BioAssay AID1224833 | University of Georgia, 2016
The deposit covers about 12,000 reagents; this is a part drawn at random. About 5,600 of all reagents (46%) were called active. 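Active calls cover z-scores past 1 in both directions, so they include lowered as well as raised rotavirus replication.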

Screen: 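Host factors restraining rotavirus as candidate antiviral genes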 (primary screen)
System: monkey MA104 kidney cells
Reagent: siRNA pool against human genes, 50 nM
Time to read-out: 48 h knock-down before infection; read 24 h after infection
Treatment: infection with rotavirus strain RV3 two days after transfection; infectious dose for this stage not given
Measurement: 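z-score of rotavirus antigen signal per well, from a fluorescent immunoassay, relative to non-targeting control wells on the same plate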
Scale: z-score vs non-targeting control: higher = more rotavirus replication than with non-targeting control
Hit rule: In these data the active calls have z-score vs non-targeting control at about -1 or lower, or at about 1 or higher
Meaning of the calls: active = z-score beyond 1 either way; inactive = z-score within 1 of zero

Knock-down of PCYOX1 (prenylcysteine oxidase 1) gave: z-score vs non-targeting control 1.15; active.
Depletion of MINAR1 (membrane integral NOTCH2 associated receptor 1) came out at: z-score vs non-targeting control -1.21; active.
Knock-down of LIN28A (lin-28 RNA binding posttranscriptional regulator A) came out at: z-score vs non-targeting control -0.281; inactive.
After knock-down of FAM107B (family with sequence similarity 107 member B), the screen gave z-score vs non-targeting control 0.913; inactive.
FGF6 (fibroblast growth factor 6) showed z-score vs non-targeting control -2.18; active.
With knock-down of GLIPR1 (GLI pathogenesis related 1), the record shows z-score vs non-targeting control -0.2; inactive.
Against ACTL7B (actin like 7B) the deposit lists z-score vs non-targeting control 0.568; inactive.
CAMTA1 (calmodulin binding transcription activator 1) scored z-score vs non-targeting control 0.803; inactive.
TMED4 (transmembrane p24 trafficking protein 4) showed z-score vs non-targeting control 2.16; active.
Knock-down of MANEA (mannosidase endo-alpha) gave: z-score vs non-targeting control -2.04; active.
After knock-down of APOBEC3A (apolipoprotein B mRNA editing enzyme catalytic subunit 3A), the screen gave z-score vs non-targeting control -1.2; active.
SPAST (spastin) gave z-score vs non-targeting control -1.49; active.
With knock-down of NCR3 (natural cytotoxicity triggering receptor 3), the screen gave z-score vs non-targeting control 0.904; inactive.
CFAP57 (cilia and flagella associated protein 57) scored z-score vs non-targeting control -1.34; active.
With knock-down of TNFRSF12A (TNF receptor superfamily member 12A) the results were z-score vs non-targeting control -2.06; active.
Silencing of TMC3 (transmembrane channel like 3) resulted in: z-score vs non-targeting control -0.733; inactive.
With knock-down of GHRH (growth hormone releasing hormone) the results were z-score vs non-targeting control -1.44; active.
With knock-down of RIF1 (replication timing regulatory factor 1), the record shows z-score vs non-targeting control 2.12; active.
OMG (oligodendrocyte myelin glycoprotein) showed z-score vs non-targeting control -1.08; active.
For TAS2R20 (taste 2 receptor member 20) the deposit lists z-score vs non-targeting control -0.52; inactive.
For S100A13 (S100 calcium binding protein A13) the deposit lists z-score vs non-targeting control -1.68; active.
Depletion of ZFAND4 (zinc finger AN1-type containing 4) resulted in: z-score vs non-targeting control -3.05; active.
Silencing of ALS2 (alsin Rho guanine nucleotide exchange factor ALS2) came out at: z-score vs non-targeting control -1.15; active.
With knock-down of CAST (calpastatin), the screen gave z-score vs non-targeting control -1.55; active.
Knock-down of MAGEB4 (MAGE family member B4) gave: z-score vs non-targeting control -0.534; inactive.
After knock-down of CTSE (cathepsin E), the record shows z-score vs non-targeting control 0.681; inactive.
After knock-down of NR3C2 (nuclear receptor subfamily 3 group C member 2), the screen gave z-score vs non-targeting control -1.52; active.
Knock-down of ZNF761 (zinc finger protein 761) resulted in: z-score vs non-targeting control 1.69; active.
Silencing of WASHC2C (WASH complex subunit 2C) gave: z-score vs non-targeting control -1.69; active.
Knock-down of AP3M1 (adaptor related protein complex 3 subunit mu 1) came out at: z-score vs non-targeting control -0.532; inactive.
Against MRPS33 (mitochondrial ribosomal protein S33), the entry reads z-score vs non-targeting control -1.86; active.
With knock-down of OSBPL9 (oxysterol binding protein like 9), the screen gave z-score vs non-targeting control -1.46; active.
Depletion of SEPTIN11 (septin 11) came out at: z-score vs non-targeting control 0.574; inactive.
IL18R1 (interleukin 18 receptor 1) gave z-score vs non-targeting control -1.01; active.
VGF (VGF nerve growth factor inducible) gave z-score vs non-targeting control -3.3; active.
Against JAGN1 (jagunal vesicle mediated transporter 1), the values are z-score vs non-targeting control -0.474; inactive.
After knock-down of SGTB, the record shows z-score vs non-targeting control -0.442; inactive.
Silencing of DCTN4 (dynactin subunit 4) came out at: z-score vs non-targeting control 0.726; inactive.
For ZNF24 (zinc finger protein 24), the values are z-score vs non-targeting control -1.71; active.
For FAM131A (family with sequence similarity 131 member A) the deposit lists z-score vs non-targeting control 0.576; inactive.
Knock-down of FBLN7 (fibulin 7) came out at: z-score vs non-targeting control -0.493; inactive.
Against OR2L8 (olfactory receptor family 2 subfamily L member 8) the deposit lists z-score vs non-targeting control -0.483; inactive.
Depletion of VPS50 (VPS50 subunit of EARP/GARPII complex) came out at: z-score vs non-targeting control -0.549; inactive.
FAM3A (FAM3 metabolism regulating signaling molecule A) scored z-score vs non-targeting control -0.424; inactive.
Silencing of NIF3L1 (NGG1 interacting factor 3 like 1) came out at: z-score vs non-targeting control 1.38; active.
NAPRT (nicotinate phosphoribosyltransferase) gave z-score vs non-targeting control 1.92; active.
Knock-down of YPEL2 (yippee like 2) gave: z-score vs non-targeting control 1.1; active.
After knock-down of TRPS1 (transcriptional repressor GATA binding 1) the results were z-score vs non-targeting control -0.96; inactive.
With knock-down of CEACAM8 (CEA cell adhesion molecule 8), the record shows z-score vs non-targeting control -1.42; active.
RCN3 (reticulocalbin 3) showed z-score vs non-targeting control 1.15; active.
Depletion of IGFL2 (IGF like family member 2) came out at: z-score vs non-targeting control 0.41; inactive.
Silencing of LCE1C (late cornified envelope 1C) gave: z-score vs non-targeting control -0.288; inactive.
HDAC5 (histone deacetylase 5) gave z-score vs non-targeting control 1.07; active.
CD82 (CD82 molecule) gave z-score vs non-targeting control -0.346; inactive.
After knock-down of CCN5 (cellular communication network factor 5), the record shows z-score vs non-targeting control 1.51; active.
For MYH8 (myosin heavy chain 8), the values are z-score vs non-targeting control 1.63; active.
After knock-down of PCDHB2 (protocadherin beta 2) the results were z-score vs non-targeting control -2.42; active.
MAF (MAF bZIP transcription factor) scored z-score vs non-targeting control 1.18; active.
For N4BP3 (NEDD4 binding protein 3), the entry reads z-score vs non-targeting control -1.29; active.
Depletion of PRNP (prion protein (Kanno blood group)) came out at: z-score vs non-targeting control -1.94; active.

No new results follow: entries from further up.
CEACAM8 (CEA cell adhesion molecule 8) — z-score vs non-targeting control: -1.42; Outcome: active
RCN3 (reticulocalbin 3) — z-score vs non-targeting control: 1.15; Outcome: active
IGFL2 (IGF like family member 2) — z-score vs non-targeting control: 0.41; Outcome: inactive
LCE1C (late cornified envelope 1C) — z-score vs non-targeting control: -0.288; Outcome: inactive
HDAC5 (histone deacetylase 5) — z-score vs non-targeting control: 1.07; Outcome: active
CD82 (CD82 molecule) — z-score vs non-targeting control: -0.346; Outcome: inactive
CCN5 (cellular communication network factor 5) — z-score vs non-targeting control: 1.51; Outcome: active
